Experimental data taken from patent publication US20240109955A1.

How the values were obtained:
Assay in all cases: cell-based or functional assay
[1] = target: SARS-CoV-2 spike protein, Omicron sublineage BF.7 (SARS-CoV-2), P0DTC2
[2] = target: SARS-CoV-2 spike protein, Omicron sublineage BA.4/5 (SARS-CoV-2), P0DTC2
[3] = target: SARS-CoV-2 spike protein, Omicron sublineage BQ.1.1 (SARS-CoV-2), P0DTC2

B1: MX1089 (protein)
chain 1: QTVVTQEPSFSVSPGGTVTLTCGLSSGSVSTAYFPSWYQQTPGQAPRTLIYGTNTRSSGVPDRFSGSILGNKAALTITGAQADDESDYYCVLYMGRGIVVFGGGTKLTVLGGSSGEIVMTQSPAILSVSPGERATLSCRASQSVAINLAWYQQKPGQAPRLLIYAASSRATGIPGRFSGSGSETNFTLTISSLQSGDFAVYYCQQYITWPPSYTFGQGTKLEIKGGGGSGGSGSGGGGSASGSGEVQLVESGGALIQPGGSLRLSCAASGIIVSANYMSWVRQAPGKGLEWVSVIYSGGSTFYADSVKGRFTISRDNSKNTLYLEMNSLRAEDTAVYYCARDAPILGVSDWGQGTLVTVSSGGSSGQVQLVESGGGVVQPGRSLRLSCAASGFTLSSYGMHWVRQAPGKGLEWVAVISYDGSNKYYVDSVKGRFTISRDNSKNTLYLQMNSLRAEDTAVYYCRWAYWELLPDYYYGMDVWGQGTTVTVSSASGGSGDKTHTCPPCPAPELLGGPSVFLFPPKPKDTLMISRTPEVTCVVVDVSHEDPEVKFNWYVDGVEVHNAKTKPREEQYNSYVVSVLTVLHQDWLNGKEYKCKVSNKALPAPIEKTISKAKGQPREPQVYTLPPCRDELTKNQVSLWCLVKGFYPSDIAVEWESNGQPENNYKTTPPVLDSDGSFFKKLTVDKSRWQQGNVFSCSVLHEALHSHYTQKSLSLSPG
chain 2: DTVMTQSPLSLPVTPGEPASISCRSSQSLLNSNGYNYLDWYVQKPGQSPQLLIYLGSNRASGVPDRFSGSGSGTDFTLKISRVEAEDVGVYYCMQPLQTPLFTFGPGTKVEIKGGSSGEIVLTQSPGTLSLSPGERATLSCRASQSVSSSYLAWYQQKPGQAPRLLIYSASSRATGIPDRFSGSGSGTDFTLTISRLEPEDFAVYFCQQYVGLTGWTFGQGTKVEIKGGGGSGGSGSGGGGSASGSGQMQLVQSGPEVKKPGTSVKVSCKASGFTFTSSAVQWVRQRQRLEWIGWIVVGSGNTNYAQKFQERVTITRDMSTSTAYMELSSLRSEDTAVYYCAAPNCSNVVCYDGFDIWGQGTMVTVSSGGSSGQVTLRESGPALVKPTQTLTLTCTFSGFSLSTRGVCVSWIRQPPGKALEWLAFIDWDDDKYYNTSLKTRLTISKDTSKNQVVLTMTNVHPVDTATYYCARISSHHGSSWCTTFDYWGQGALVTVSAASGGSGDKTHTCPPCPAPELLGGPSVFLFPPKPKDTLMISRTPEVTCVVVDVSHEDPEVKFNWYVDGVEVHNAKTKPREEQYNSYVVSVLTVLHQDWLNGKEYKCKVSNKALPAPIEKTISKAKGQPREPQVCTLPPSRDELTKNQVSLSCAVKGFYPSDIAVEWESNGQPENNYKTTPPVLDSDGSFFLVSKLTVDKSRWQQGNVFSCSVLHEALHSHYTQKSLSLSPG
B1 gave an IC50 (pseudovirus neutralization) [1] of 22.6 nM, an IC80 (pseudovirus neutralization) [1] of 64.3 nM and an IC50 (pseudovirus neutralization) [2] of 2.32 nM. The IC80 (pseudovirus neutralization) [2] was 3.5 nM, the IC50 (pseudovirus neutralization) [3] was 1.99 nM and the IC80 (pseudovirus neutralization) [3] was 7.9 nM.

B2: E12 (antibody, V domains shown)
VH: EVQLVESGGGLIQPGGSLRLSCAASGVIVSYNYMNWVRQAPGKGLEWVSVIYSGGSTFYADSVRGRFTISRDNSKNTLYLQMNSLRAEDTAVYYCARDLGPAGAFDIWGLGTMVTVSS
VL: EIVLTQSPGTLSLSPGETATLSCRASQSFSSDLAWYQQKPGQAPRLLIYGASSRATGIPDRFSGSGSGTDFTLTISRLEPADFAVYYCQQYGSSPPVTFGGGTKVEIK
With B2 the IC50 (pseudovirus neutralization) [1] was 28.3 nM, the IC80 (pseudovirus neutralization) [1] was 88.7 nM and the IC50 (pseudovirus neutralization) [2] was 4.62 nM. It also gave an IC80 (pseudovirus neutralization) [2] of 9.21 nM, an IC50 (pseudovirus neutralization) [3] of 5.29 nM and an IC80 (pseudovirus neutralization) [3] of 17.4 nM.

B3: B8 (antibody, V domains shown)
VH: EVQLVESGGALIQPGGSLRLSCAASGIIVSANYMSWVRQAPGKGLEWVSVIYSGGSTFYADSVKGRFTISRDNSKNTLYLEMNSLRAEDTAVYYCARDAPILGVSDWGQGTLVTVSS
VL: EIVMTQSPAILSVSPGERATLSCRASQSVAINLAWYQQKPGQAPRLLIYAASSRATGIPGRFSGSGSETNFTLTISSLQSGDFAVYYCQQYITWPPSYTFGQGTKLEIK
Binder B3 has an IC50 (pseudovirus neutralization) [1] of 19.8 nM, an IC80 (pseudovirus neutralization) [1] of 63 nM and an IC50 (pseudovirus neutralization) [2] of 6.97 nM. The IC80 (pseudovirus neutralization) [2] was 14.8 nM, the IC50 (pseudovirus neutralization) [3] was 4.57 nM and the IC80 (pseudovirus neutralization) [3] was 21.7 nM.

B4: A23-58H/A23-58L93VGLTG (antibody, V domains shown)
VH: QMQLVQSGPEVKKPGTSVKVSCKASGFTFTSSAVQWVRQRQRLEWIGWIVVGSGNTNYAQKFQERVTITRDMSTSTAYMELSSLRSEDTAVYYCAAPNCSNVVCYDGFDIWGQGTMVTVSS
VL: EIVLTQSPGTLSLSPGERATLSCRASQSVSSSYLAWYQQKPGQAPRLLIYSASSRATGIPDRFSGSGSGTDFTLTISRLEPEDFAVYFCQQYVGLTGWTFGQGTKVEIK
In the case of B4, the IC50 (pseudovirus neutralization) [1] is reported as 97.5 nM, the IC80 (pseudovirus neutralization) [1] is reported as 475 nM and the IC50 (pseudovirus neutralization) [2] is reported as 5.2 nM. The IC80 (pseudovirus neutralization) [2] was 13.5 nM, the IC50 (pseudovirus neutralization) [3] was 30.3 nM and the IC80 (pseudovirus neutralization) [3] was 1320 nM.

B5: E8 (antibody, V domains shown)
VH: QVTLRESGPALVKPTQTLTLTCTFSGFSLSTRGVCVSWIRQPPGKALEWLAFIDWDDDKYYNTSLKTRLTISKDTSKNQVVLTMTNVHPVDTATYYCARISSHHGSSWCTTFDYWGQGALVTVSA
VL: DTVMTQSPLSLPVTPGEPASISCRSSQSLLNSNGYNYLDWYVQKPGQSPQLLIYLGSNRASGVPDRFSGSGSGTDFTLKISRVEAEDVGVYYCMQPLQTPLFTFGPGTKVEIK
Binder B5 has an IC50 (pseudovirus neutralization) [1] of 15.6 nM, an IC80 (pseudovirus neutralization) [1] of 30.9 nM and an IC50 (pseudovirus neutralization) [2] of 0.13 nM. For the same binder, the IC80 (pseudovirus neutralization) [2] was 0.49 nM, the IC50 (pseudovirus neutralization) [3] was 496 nM and the IC80 (pseudovirus neutralization) [3] was 1800 nM.
